Measurements published in patent publication US9625458B2, “Biosensor” (priority 2002, dated 2017).
Positions count from the first letter of the chain named. Names may count otherwise.

B1: dipeptide BP T44C NBD (conjugate)
chain: MKTLVYCSEGSPEGFNPQLFTSGTTYDASSVPLYNRLVEFKIGTCEVIPGLAEKWEVSEDGKTYTFHLRKGVKWHDNKEFKPTRELNADDVVFSFDRQKNAQNPYHKVSGGSYEYFEGMGLPELISEVKKVDDNTVQFVLTRPEAPFLADLAMDFASILSKEYADAMMKAGTPEKLDLNPIGTGPFQLQQYQKDSRIRYKAFDGYWGTKPQIDTLVFSITPDASVRYAKLQKNECQVMPYPNPADIARMKQDKSINLMEMPGLNVGYLSYNVQKKPLDDVKVRQALTYAVNKDAIIKAVYQGAGVSAKNLIPPTMWGYNDDVQDYTYDPEKAKALLKEAGLEKGFSIDLWAMPVQRPYNPNARRMAEMIQADWAKVGVQAKIVTYEWGEYLKRAKDGEHQTVMMGWTGDNGDPDNFFATLFSCAASEQGSNYSKWCYKPFEDLIQPARATDDHNKRVELYKQAQVVMHDQAPALIIAHSTVFEPVRKEVKGYVVDPLGKHHFENVSIE
modifications: left off: small tags and cut ends
B2: dipeptide BP K394C NBD (conjugate, UniProt P23847 29-535, looked up, variant K394C)
Dipeptide-binding protein: KTLVYCSEGSPEGFNPQLFTSGTTYDASSVPLYNRLVEFKIGTTEVIPGLAEKWEVSEDGKTYTFHLRKGVKWHDNKEFKPTRELNADDVVFSFDRQKNAQNPYHKVSGGSYEYFEGMGLPELISEVKKVDDNTVQFVLTRPEAPFLADLAMDFASILSKEYADAMMKAGTPEKLDLNPIGTGPFQLQQYQKDSRIRYKAFDGYWGTKPQIDTLVFSITPDASVRYAKLQKNECQVMPYPNPADIARMKQDKSINLMEMPGLNVGYLSYNVQKKPLDDVKVRQALTYAVNKDAIIKAVYQGAGVSAKNLIPPTMWGYNDDVQDYTYDPEKAKALLKEAGLEKGFSIDLWAMPVQRPYNPNARRMAEMIQADWAKVGVQAKIVTYEWGEYLKRACDGEHQTVMMGWTGDNGDPDNFFATLFSCAASEQGSNYSKWCYKPFEDLIQPARATDDHNKRVELYKQAQVVMHDQAPALIIAHSTVFEPVRKEVKGYVVDPLGKHHFENVSIE
modifications: NBD conjugate
B3: dipeptide BP R141C Acrylodan (conjugate, UniProt P23847 29-535, looked up, variant R141C)
Dipeptide-binding protein: B2 Dipeptide-binding protein with R141C, C394K
modifications: acrylodan label
B4: dipeptide BP T44C JPW4045 (conjugate, UniProt P23847 29-535, looked up, variant T44C)
Dipeptide-binding protein: B2 Dipeptide-binding protein with T44C, C394K
modifications: JPW4045 dye conjugate
B5: dipeptide BP S111C JPW4039 (conjugate, UniProt P23847 29-535, looked up, variant S111C)
Dipeptide-binding protein: B2 Dipeptide-binding protein with S111C, C394K
modifications: JPW4039 label
B6: dipeptide BP S111C JPW4045 (conjugate, UniProt P23847 29-535, looked up, variant S111C)
Dipeptide-binding protein: B2 Dipeptide-binding protein with S111C, C394K
modifications: JPW4045 dye conjugate
B7: dipeptide BP S111C Fluorescein (conjugate, UniProt P23847 29-535, looked up, variant S111C)
Dipeptide-binding protein: B2 Dipeptide-binding protein with S111C, C394K
modifications: fluorescein label
B8: dipeptide BP W315C Fluorescein (conjugate, UniProt P23847 29-535, looked up, variant W315C)
Dipeptide-binding protein: B2 Dipeptide-binding protein with W315C, C394K
modifications: fluorescein label
B9: dipeptide BP T44C JPW4039 (conjugate, UniProt P23847 29-535, looked up, variant T44C)
Dipeptide-binding protein: B2 Dipeptide-binding protein with T44C, C394K
modifications: JPW4039 dye conjugate
B10: dipeptide BP R141C NBD (conjugate, UniProt P23847 29-535, looked up, variant R141C)
Dipeptide-binding protein: B2 Dipeptide-binding protein with R141C, C394K
modifications: NBD label
B11: dipeptide BP T44C Fluorescein (conjugate, UniProt P23847 29-535, looked up, variant T44C)
Dipeptide-binding protein: B2 Dipeptide-binding protein with T44C, C394K
modifications: fluorescein label
B12: dipeptide BP W315C JPW4039 (conjugate, UniProt P23847 29-535, looked up, variant W315C)
Dipeptide-binding protein: B2 Dipeptide-binding protein with W315C, C394K
modifications: JPW4039 dye conjugate
B13: dipeptide BP W315C Acrylodan (conjugate, UniProt P23847 29-535, looked up, variant W315C)
Dipeptide-binding protein: B2 Dipeptide-binding protein with W315C, C394K
modifications: acrylodan conjugate
B14: dipeptide BP W315C JPW4042 (conjugate, UniProt P23847 29-535, looked up, variant W315C)
Dipeptide-binding protein: B2 Dipeptide-binding protein with W315C, C394K
modifications: JPW4042 dye label
B15: dipeptide BP S111C JPW4042 (conjugate, UniProt P23847 29-535, looked up, variant S111C)
Dipeptide-binding protein: B2 Dipeptide-binding protein with S111C, C394K
modifications: JPW4042 dye label
B16: dipeptide BP W315C JPW4045 (conjugate, UniProt P23847 29-535, looked up, variant W315C)
Dipeptide-binding protein: B2 Dipeptide-binding protein with W315C, C394K
modifications: JPW4045 label
B17: dipeptide BP R141C JPW4042 (conjugate, UniProt P23847 29-535, looked up, variant R141C)
Dipeptide-binding protein: B2 Dipeptide-binding protein with R141C, C394K
modifications: JPW4042 dye label
B18: dipeptide BP S111C Acrylodan (conjugate, UniProt P23847 29-535, looked up, variant S111C)
Dipeptide-binding protein: B2 Dipeptide-binding protein with S111C, C394K
modifications: acrylodan label
B19: dipeptide BP R141C JPW4045 (conjugate, UniProt P23847 29-535, looked up, variant R141C)
Dipeptide-binding protein: B2 Dipeptide-binding protein with R141C, C394K
modifications: JPW4045 label
B20: dipeptide BP S111C NBD (conjugate, UniProt P23847 29-535, looked up, variant S111C)
Dipeptide-binding protein: B2 Dipeptide-binding protein with S111C, C394K
modifications: NBD dye conjugate
B21: dipeptide BP R141C JPW4039 (conjugate, UniProt P23847 29-535, looked up, variant R141C)
Dipeptide-binding protein: B2 Dipeptide-binding protein with R141C, C394K
modifications: JPW4039 dye conjugate
B22: dipeptide BP T44C JPW4042 (conjugate, UniProt P23847 29-535, looked up, variant T44C)
Dipeptide-binding protein: B2 Dipeptide-binding protein with T44C, C394K
modifications: JPW4042 label
B23: dipeptide BP R141C Fluorescein (conjugate, UniProt P23847 29-535, looked up, variant R141C)
Dipeptide-binding protein: B2 Dipeptide-binding protein with R141C, C394K
modifications: fluorescein conjugate
B24: dipeptide BP T44C Acrylodan (conjugate, UniProt P23847 29-535, looked up, variant T44C)
Dipeptide-binding protein: B2 Dipeptide-binding protein with T44C, C394K
modifications: acrylodan conjugate

Assay: Fluorescence emission spectra without and with saturating ligand (wavelength shift, ΔIstd, ΔRmax)
Conditions: for λmax,apo (nm) / λmax,sat (nm): emission maximum; for λmax,apo (nm): absence of ligand; for λmax,sat (nm): saturating ligand (ligand column); for ΔIstd: standard intensity change; for ΔIstd / ΔRmax: unbound vs ligand-saturated; for ΔRmax: standard ratiometric change
How it was run: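 Emission spectra of bPBP–fluorophore conjugates (50–1000 nM protein, 25 °C, stirred) recorded without and with saturating ligand, using fluorophore-specific excitation. Wavelength shift, ΔIstd (intensity change at the mid-point wavelength) and ΔRmax (maximal ratiometric change over enumerated band pairs, 2 nm steps, 10 nm width) derived.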

| Molecule | λmax,apo (nm) | λmax,sat (nm) | ΔIstd | ΔRmax |
| --- | --- | --- | --- | --- |
| B1 | 539 | 536 | 0.11 | 0.30 |
| B2 | 542 | 541 | 0.06 | 0.68 |
| B3 | 502 | 501 | 0.06 | 0.25 |
| B4 | 640 | 636 | 0.13 | 0.82 |
| B5 | 597 | 598 | 0.24 | 0.33 |
| B6 | 634 | 642 | 0.01 | 1.07 |
| B7 | 521 | 521 | 0.07 | 0.18 |
| B8 | 521 | 521 | 0.02 | 0.21 |
| B9 | 594 | 596 | 0.13 | 0.33 |
| B10 | 542 | 544 | 0.00 | 0.13 |
| B11 | 522 | 522 | 0.05 | 0.21 |
| B12 | 594 | 593 | 0.26 | 0.45 |
| B13 | 503 | 504 | 0.08 | 0.47 |
| B14 | 645 | 640 | 0.05 | 0.16 |
| B15 | 644 | 644 | 0.18 | 1.49 |
| B16 | 640 | 640 | 0.14 | 0.55 |
| B17 | 629 | 631 | 0.06 | 0.87 |
| B18 | 499 | 501 | 0.11 | 1.61 |
| B19 | 610 | 617 | 0.15 | 1.18 |
| B20 | 538 | 542 | 0.01 | 0.18 |
| B21 | 592 | 596 | 0.06 | 0.69 |
| B22 | 634 | 635 | 0.06 | 0.30 |
| B23 | 522 | 522 | 0.12 | 0.66 |
| B24 | 499 | 501 | 0.01 | 1.52 |
